Assay results: paper PMC9104152, “Phosphoproteomics Unravel HBV Triggered Rewiring of Host Phosphosignaling Events” (International Journal of Molecular Sciences, 2022)

B1: Q5VT52 1xPhospho [S1099(100)] (protein, UniProt Q5VT52 2-1461, looked up)
Regulation of nuclear …: AAGGGGGSSKASSSSASSAGALESSLDRKFQSVTNTMESIQGLSSWCIENKKHHSTIVYHWMKWLRRSAYPHRLNLFYLANDVIQNCKRKNAIIFRESFADVLPEAAALVKDPSVSKSVERIFKIWEDRNVYPEEMIVALREALSTTFKTQKQLKENLNKQPNKQWKKSQTSTNPKAALKSKIVAEFRSQALIEELLLYKRSEDQIELKEKQLSTMRVDVCSTETLKCLKDKTGGKKFSKEFEEASSKLEEFVNGLDKQVKNGPSLTEALENAGIFYEAQYKEVKVVANAYKTFANRVNNLKKKLDQLKSTLPDPEESPVPSPSMDAPSPTGSESPFQGMGGEESQSPTMESEKSATPEPVTDNRDVEDMELSDVEDDGSKIIVEDRKEKPAEKSAVSTSVPTKPTENISKASSCTPVPVTMTATPPLPKPVNTSLSPSPALALPNLANVDLAKISSILSSLTSVMKNTGVSPASRPSPGTPTSPSNLTSGLKTPAPATTTSHNPLANILSKVEITPESILSALSKTQTQSAPALQGLSSLLQSVTGNPVPASEAASQSTSASPANTTVSTIKGRNLPSSAQPFIPKSFNYSPNSSTSEVSSTSASKASIGQSPGLPSTTFKLPSNSLGFTATHNTSPAAPPTEVTICQSSEVSKPKLESESTSPSLEMKIHNFLKGNPGFSGLNLNIPILSSLGSSAPSESHPSDFQRGPTSTSIDNIDGTPVRDERSGTPTQDEMMDKPTSSSVDTMSLLSKIISPGSSTPSSTRSPPPGRDESYPRELSNSVSTYRPFGLGSESPYKQPSDGMERPSSLMDSSQEKFYPDTSFQEDEDYRDFEYSGPPPSAMMNLEKKPAKSILKSSKLSDTTEYQPILSSYSHRAQEFGVKSAFPPSVRALLDSSENCDRLSSSPGLFGAFSVRGNEPGSDRSPSPSKNDSFFTPDSNHNSLSQSTTGHLSLPQKQYPDSPHPVPHRSLFSPQNTLAAPTGHPPTSGVEKVLASTISTTSTIEFKNMLKNASRKPSDDKHFGQAPSKGTPSDGVSLSNLTQPSLTATDQQQQEEHYRIETRVSSSCLDLPDSTEEKGAPIETLGYHSASNRRMSGEPIQTVESIRVPGKGNRGHGREASRVGWFDLSTSGSSFDNGPSSASELASLGGGGSGGLTGFKTAPYKERAPQFQESVGSFRSNSFNSTFEHHLPPSPLEHGTPFQREPVGPSSAPPVPPKDHGGIFSRDAPTHLPSVDLSNPFTKEAALAHAAPPPPPGEHSGIPFPTPPPPPPPGEHSSSGGSGVPFSTPPPPPPPVDHSGVVPFPAPPLAEHGVAGAVAVFPKDHSSLLQGTLAEHFGVLPGPRDHGGPTQRDLNGPGLSRVRESLTLPSHSLEHLGPPHGGGGGGGSNSSSGPPLGPSHRDTISRSGIILRSPRPDFRPREPFLSRDPFHSLKRPRPPFARGPPFFAPKRPFFPPRY
modifications: phospho S1099
B2: Q9Y3B9 2xPhospho [S58(99.6); S67(100)] (protein, UniProt Q9Y3B9 2-282, looked up)
RRP15-like protein: AAAAPDSRVSEEENLKKTPKKKMKMVTGAVASVLEDEATDTSDSEGSCGSEKDHFYSDDDAIEADSEGDAEPCDKENENDGESSVGTNMGWADAMAKVLNKKTPESKPTILVKNKKLEKEKEKLKQERLEKIKQRDKRLEWEMMCRVKPDVVQDKETERNLQRIATRGVVQLFNAVQKHQKNVDEKVKEAGSSMRKRAKLISTVSKKDFISVLRGMDGSTNETASSRKKPKAKQTEVKSEEGPGWTILRDDFMMGASMKDWDKESDGPDDSRPESASDSDT
modifications: phosphorylated S58, S67
B3: O43818 1xPhospho [S53(99.6)] (protein, UniProt O43818 1-475, looked up)
U3 small nucleolar …: MSATAAARKRGKPASGAGAGAGAGKRRRKADSAGDRGKSKGGGKMNEEISSDSESESLAPRKPEEEEEEELEETAQEKKLRLAKLYLEQLRQQEEEKAEARAFEEDQVAGRLKEDVLEQRGRLQKLVAKEIQAPASADIRVLRGHQLSITCLVVTPDDSAIFSAAKDCSIIKWSVESGRKLHVIPRAKKGAEGKPPGHSSHVLCMAISSDGKYLASGDRSKLILIWEAQSCQHLYTFTGHRDAVSGLAFRRGTHQLYSTSHDRSVKVWNVAENSYVETLFGHQDAVAALDALSRECCVTAGGRDGTVRVWKIPEESQLVFYGHQGSIDCIHLINEEHMVSGADDGSVALWGLSKKRPLALQREAHGLRGEPGLEQPFWISSVAALLNTDLVATGSHSSCVRLWQCGEGFRQLDLLCDIPLVGFINSLKFSSSGDFLVAGVGQEHRLGRWWRIKEARNSVCIIPLRRVPVPPAAGS
modifications: phosphorylated S53
B4: Q96T23 1xPhospho [Y/S] (protein, UniProt Q96T23 1-1441, looked up)
Remodeling and spacing factor …: MATAAAAAAVMAPPGCPGSCPNFAVVCSFLERYGPLLDLPELPFPELERVLQAPPPDVGNGEVPKELVELHLKLMRKIGKSVTADRWEKYLIKICQEFNSTWAWEMEKKGYLEMSVECKLALLKYLCECQFDDNLKFKNIINEEDADTMRLQPIGRDKDGLMYWYQLDQDHNVRMYIEEQDDQDGSSWKCIVRNRNELAETLALLKAQIDPVLLKNSSQQDNSSRESPSLEDEETKKEEETPKQEEQKESEKMKSEEQPMDLENRSTANVLEETTVKKEKEDEKELVKLPVIVKLEKPLPENEEKKIIKEESDSFKENVKPIKVEVKECRADPKDTKSSMEKPVAQEPERIEFGGNIKSSHEITEKSTEETEKLKNDQQAKIPLKKREIKLSDDFDSPVKGPLCKSVTPTKEFLKDEIKQEEETCKRISTITALGHEGKQLVNGEVSDERVAPNFKTEPIETKFYETKEESYSPSKDRNIITEGNGTESLNSVITSMKTGELEKETAPLRKDADSSISVLEIHSQKAQIEEPDPPEMETSLDSSEMAKDLSSKTALSSTESCTMKGEEKSPKTKKDKRPPILECLEKLEKSKKTFLDKDAQRLSPIPEEVPKSTLESEKPGSPEAAETSPPSNIIDHCEKLASEKEVVECQSTSTVGGQSVKKVDLETLKEDSEFTKVEMDNLDNAQTSGIEEPSETKGSMQKSKFKYKLVPEEETTASENTEITSERQKEGIKLTIRISSRKKKPDSPPKVLEPENKQEKTEKEEEKTNVGRTLRRSPRISRPTAKVAEIRDQKADKKRGEGEDEVEEESTALQKTDKKEILKKSEKDTNSKVSKVKPKGKVRWTGSRTRGRWKYSSNDESEGSGSEKSSAASEEEEEKESEEAILADDDEPCKKCGLPNHPELILLCDSCDSGYHTACLRPPLMIIPDGEWFCPPCQHKLLCEKLEEQLQDLDVALKKKERAERRKERLVYVGISIENIIPPQEPDFSEDQEEKKKDSKKSKANLLERRSTRTRKCISYRFDEFDEAIDEAIEDDIKEADGGGVGRGKDISTITGHRGKDISTILDEERKENKRPQRAAAARRKKRRRLNDLDSDSNLDEEESEDEFKISDGSQDEFVVSDENPDESEEDPPSNDDSDTDFCSRRLRRHPSRPMRQSRRLRRKTPKKKYSDDDEEEESEENSRDSESDFSDDFSDDFVETRRRRSRRNQKRQINYKEDSESDGSQKSLRRGKEIRRVHKRRLSSSESEESYLSKNSEDDELAKESKRSVRKRGRSTDEYSEADEEEEEEEGKPSRKRLHRIETDEEESCDNAHGDANQPARDSQPRVLPSEQESTKKPYRIESDEEEDFENVGKVGSPLDYSLVDLPSTNGQSPGKAIENLIGKPTEKSQTPKDNSTASASLASNGTSGGQEAGAPEEEEDELLRVTDLVDYVCNSEQL
modifications: phosphorylated
B5: Q9BST9 1xPhospho [S561(100)] (protein, UniProt Q9BST9 1-563, looked up)
Rhotekin: MFSRNHRSRVTVARGSALEMEFKRGRFRLSLFSDLPEDTELQRKLDHEIRMREGACKLLAACSQREQALEATKSLLVCNSRILSYMGELQRRKEAQVLGKTSRRPSDSGPPAERSPCRGRVCISDLRIPLMWKDTEYFKNKGDLHRWAVFLLLQLGEHIQDTEMILVDRTLTDISFQSNVLFAEAGPDFELRLELYGACVEEEGALTGGPKRLATKLSSSLGRSSGRRVRASLDSAGGSGSSPILLPTPVVGGPRYHLLAHTTLTLAAVQDGFRTHDLTLASHEENPAWLPLYGSVCCRLAAQPLCMTQPTASGTLRVQQAGEMQNWAQVHGVLKGTNLFCYRQPEDADTGEEPLLTIAVNKETRVRAGELDQALGRPFTLSISNQYGDDEVTHTLQTESREALQSWMEALWQLFFDMSQWKQCCDEIMKIETPAPRKPPQALAKQGSLYHEMAIEPLDDIAAVTDILTQREGARLETPPPWLAMFTDQPALPNPCSPASVAPAPDWTHPLPWGRPRTFSLDAVPPDHSPRARSVAPLPPQRSPRTRGLCSKGQPRTWLQSPV
modifications: phosphorylated S561
B6: A3KN83 1xPhospho [S] (protein, UniProt A3KN83 1-1393, looked up)
Protein strawberry notch …: MVEPGQDLLLAALSESGISPNDLFDIDGGDAGLATPMPTPSVQQSVPLSALELGLETEAAVPVKQEPETVPTPALLNVRQQPPSTTTFVLNQINHLPPLGSTIVMTKTPPVTTNRQTITLTKFIQTTASTRPSVSAPTVRNAMTSAPSKDQVQLKDLLKNNSLNELMKLKPPANIAQPVATAATDVSNGTVKKESSNKEGARMWINDMKMRSFSPTMKVPVVKEDDEPEEEDEEEMGHAETYAEYMPIKLKIGLRHPDAVVETSSLSSVTPPDVWYKTSISEETIDNGWLSALQLEAITYAAQQHETFLPNGDRAGFLIGDGAGVGKGRTIAGIIYENYLLSRKRALWFSVSNDLKYDAERDLRDIGAKNILVHSLNKFKYGKISSKHNGSVKKGVIFATYSSLIGESQSGGKYKTRLKQLLHWCGDDFDGVIVFDECHKAKNLCPVGSSKPTKTGLAVLELQNKLPKARVVYASATGASEPRNMAYMNRLGIWGEGTPFREFSDFIQAVERRGVGAMEIVAMDMKLRGMYIARQLSFTGVTFKIEEVLLSQSYVKMYNKAVKLWVIARERFQQAADLIDAEQRMKKSMWGQFWSAHQRFFKYLCIASKVKRVVQLAREEIKNGKCVVIGLQSTGEARTLEALEEGGGELNDFVSTAKGVLQSLIEKHFPAPDRKKLYSLLGIDLTAPSNNSSPRDSPCKENKIKKRKGEEITREAKKARKVGGLTGSSSDDSGSESDASDNEESDYESSKNMSSGDDDDFNPFLDESNEDDENDPWLIRKDHKKNKEKKKKKSIDPDSIQSALLASGLGSKRPSFSSTPVISPAPNSTPANSNTNSNSSLITSQDAVERAQQMKKDLLDKLEKLAEDLPPNTLDELIDELGGPENVAEMTGRKGRVVSNDDGSISYESRSELDVPVEILNITEKQRFMDGDKNIAIISEAASSGISLQADRRAKNQRRRVHMTLELPWSADRAIQQFGRTHRSNQVTAPEYVFLISELAGEQRFASIVAKRLESLGALTHGDRRATESRDLSRFNFDNKYGRNALEIVMKSIVNLDSPMVSPPPDYPGEFFKDVRQGLIGVGLINVEDRSGILTLDKDYNNIGKFLNRILGMEVHQQNALFQYFADTLTAVVQNAKKNGRYDMGILDLGSGDEKVRKSDVKKFLTPGYSTSGHVELYTISVERGMSWEEATKIWAELTGPDDGFYLSLQIRNNKKTAILVKEVNPKKKLFLVYRPNTGKQLKLEIYADLKKKYKKVVSDDALMHWLDQYNSSADTCTHAYWRGNCKKASLGLVCEIGLRCRTYYVLCGSVLSVWTKVEGVLASVSGTNVKMQIVRLRTEDGQRIVGLIIPANCVSPLVNLLSTSDQSQQLAVQQKQLWQQHHPQSITNLSNA
modifications: phosphorylated serine
B7: P57086 1xPhospho [S/T] (protein, UniProt P57086 1-179, looked up)
SCAN domain-containing …: MAATEPILAATGSPAAVPPEKLEGAGSSSAPERNCVGSSLPEASPPAPEPSSPNAAVPEAIPTPRAAASAALELPLGPAPVSVAPQAEAEARSTPGPAGSRLGPETFRQRFRQFRYQDAAGPREAFRQLRELSRQWLRPDIRTKEQIVEMLVQEQLLAILPEAARARRIRRRTDVRITG
modifications: phospho

System: HepG2-NTCP cells
Assay: TMT-based phosphoproteome profiling of HBV-infected vs mock HepG2-NTCP (HBV/mock ratio)
Set-up: species or system human
Settings: phosphosite abundance ratio of host protein, HBV-infected vs mock HepG2-NTCP, 7dpi, sheet Up-regulated

Row | Molecule | HBV/mock
1 | B1 | 1.372
2 | B2 | 1.458
3 | B3 | 6.455
4 | B4 | 2.043
5 | B5 | 1.468
6 | B6 | 2.712
7 | B7 | 1.444
